This note sets out measurements from ChEMBL document CHEMBL1275563, “Genetic characterization of Vga ABC proteins conferring reduced susceptibility to pleuromutilins in Staphylococcus aureus” (2008).

In this test the test system is Staphylococcus aureus. Particulars: RN4220.

On to GENTAMICIN, for which the MIC amounted to 0.5 µg/mL.
